Reference: ChEMBL document CHEMBL1629572 (Antimicrob Agents Chemother, 2009)

Experiments:
Influenza A virus [1] = test: Ratio of IC50 for Influenza A virus (A/Kawasaki/IMS22A-954/2003(H3N2)) neuraminidase R292K mutant to IC50 for Influenza A virus (A/Kawasaki/IMS22A-954/2003(H3N2)) wild type neuraminidase
Influenza A virus [2] = test: Ratio of IC50 for Influenza A virus (A/Yokohama/IMS9A-2029/2003(H3N2)) neuraminidase E119V mutant to IC50 for Influenza A virus (A/Yokohama/IMS9A-2029/2003(H3N2)) wild type neuraminidase
Influenza A virus [3] = test: Ratio of IC50 for Influenza A virus (A/Kawasaki/MS31A-1030/2002(H3N2)) neuraminidase N294S mutant to IC50 for Influenza A virus (A/Kawasaki/MS31A-1030/2002(H3N2)) wild type neuraminidase
Influenza A virus [4] = test: Ratio of IC50 for Influenza A virus (A/Yokohama/67/2006(clone 11)(H1N1)) neuraminidase H274Y mutant to IC50 for Influenza A virus (A/Yokohama/67/2006(clone 1)(H1N1)) wild type neuraminidase

Q: With `CCOC(=O)C1=C[C@@H](OC(CC)CC)[C@H](NC(C)=O)[C@@H](N)C1` [OSELTAMIVIR] as the compound, how does the Ratio (Influenza A virus [1]) read?
A: 8400

Q: What about the Ratio (Influenza A virus [2]) of the same compound?
A: 79

Q: And the Ratio (Influenza A virus [3])?
A: 32

Q: What about the Ratio (Influenza A virus [4]) of the same compound?
A: 330
